Measurements reported in paper PMC8880671, “Facial Synthesis and Bioevaluation of Well-Defined OEGylated Betulinic Acid-Cyclodextrin Conjugates for Inhibition of Influenza Infection” (Molecules, 2022).

System: influenza A/WSN/33 (H1N1) virus
Assay type: cell-based
Settings: CC50 in MDCK / IC50 against A/WSN/33

Row | Substance | SI (Selectivity Index, ratio of CC50 to IC50)
1 | Heptakis 6-Deoxy-6-[4-N-(3β-Hydroxy-lup-20(29)-en-28-oyl)-aminomethyl-1H-1,2,3-triazol-1-yl]-β-CD [Compound 70] | >13.4
2 | Hexakis 6-Deoxy-6-[4-N-(3β-Hydroxy-lup-20(29)-en-28-oyl)-aminomethyl-1H-1,2,3-triazol-1-yl]-α-CD [Compound 69] | >10.2
3 | Octakis 6-Deoxy-6-[4-N-(3β-Hydroxy-lup-20(29)-en-28-oyl)-aminomethyl-1H-1,2,3-triazol-1-yl]-γ-CD [Compound 71] | >13.2
